A mixed list of measured activities; the numbers were collected in NIAID ChemDB.

All rows: tests on isolated targets; agent: HIV-1; target: Reverse transcriptase; read by: RT activity; endpoint: IC50

ICn is the concentration giving n% inhibition. An empty or dashed field is not shown. Lines come from different laboratories, so protocols vary.

compound,strain,changes,result
O=C(O)CN(CC(=O)O)Cc1cc2c(c(O)c1O)C(=O)c1ccccc1C2=O,,,19 µg/mL
Cc1c(S(=O)(=O)c2ccccc2)[nH]c2ccccc12,,WT,87 µM
CCOCn1c(Sc2ccccc2)c(C)c(=O)[nH]c1=O,,,4.1 µM
Cc1cn(S(=O)(=O)c2ccc(C(C)(C)C)cc2)c2ccccc12,,K103N,48 µM
O=C(CCCCCCC(=O)Nc1ccc(S(=O)(=O)O)c2ccccc12)Nc1ccc(S(=O)(=O)O)c2ccccc12,,,>50 µM
COc1ccc(C(=O)/C=C/c2cc3ccc(Cl)c(C)c3nc2Cl)cc1,,,0.25 µg/mL
O=S(=O)(O)c1cc(S(=O)(=O)O)c2cc(NS(=O)(=O)c3ccc(-c4ccc(S(=O)(=O)Nc5ccc6cc(S(=O)(=O)O)cc(S(=O)(=O)O)c6c5)cc4)cc3)ccc2c1,,,<50 µM
O=C1c2ccccc2C(=O)c2c1ccc(O)c2O,,,45 µg/mL
CCCCCCCCCCCCCCCC(=O)NCC1OC(n2cnc3c(N)ncnc32)C(OP(=O)(O)OCC2OC(n3cnc4c(N)ncnc43)C(OP(=O)(O)OCC3CC(O)C(n4cnc5c(N)ncnc54)O3)C2O)C1O,IIIB,,<100 µM
Cc1ccc(S(=O)(=O)c2c(-c3ccccc3)[nH]c3ccccc23)cc1,,WT,>100 µM
CC(C)=CCN1Cc2cc(Cl)cc3[nH]c(=O)n(c23)C[C@@H]1C,,RT-Y181C,12 µM
CCCCCCCCCCCCCCCC(=O)Oc1cc(S(=O)(=O)O)c2ccccc2c1N,,,<50 µM
Cc1c(Cl)ccc2cc(/C=C/c3cccc4c3OCCO4)c(Cl)nc12,,,0.28 µg/mL
CC(C)(C)c1ccc(S(=O)(=O)c2c[nH]c3ccccc23)cc1,,WT,52 µM
COP(=O)(c1cc(C)cc(CCC#N)c1)c1c(C(N)=O)[nH]c2ccc(Cl)cc12,,K103N,2.203 µM
O=S(=O)(O)c1cccc2ccc(OS(=O)(=O)c3ccc(-c4ccc(S(=O)(=O)Oc5ccc6cccc(S(=O)(=O)O)c6c5)cc4)cc3)cc12,,,<50 µM
Cc1cc(C)cc(S(=O)(=O)c2c(C(=O)NC(C)C(N)=O)[nH]c3ccc(Cl)cc23)c1,,K103N,0.477 µM
O=C1c2ccccc2C(=O)c2c1cc(S(=O)(=O)O)c(O)c2O,,,8.5 µg/mL
CCN1c2ncc(CCc3ccccc3)cc2C(=O)N(C)c2cccnc21,IIIB,RT-Y188L RT-Y181C,>>1 µM
COP(=O)(OC)C(O)c1c(-c2cccs2)[nH]c2ccccc12,,,0.0249 µM
Nc1ncnc2c1ccn2[C@H]1C[C@H](F)[C@@H](COP(=O)(O)OP(=O)(O)OP(=O)(O)O)O1,,,0.43 µM
Cc1cc(C)cc(S(=O)(=O)c2c(C(=O)NC(C)CC(N)=O)[nH]c3ccc(Cl)cc23)c1,,K103N,1.69 µM
O=c1cc(Sc2ccccc2)n(COCCO)c(=O)[nH]1,,,>500 µM
COC(=O)/C=C\c1c(-c2cccs2)[nH]c2ccccc12,,,0.00409 µM
Cc1c(Cl)ccc2cc(/C=C/C(=O)c3ccc(Br)cc3)c(Cl)nc12,,,0.1 µg/mL
CCCCCCCCCCCCCCCC(=O)NCC1CC(OP(=O)(O)OCC2CC(OP(=O)(O)OCC3CC(O)C(n4cnc5c(N)ncnc54)O3)C(n3cnc4c(N)ncnc43)O2)C(n2cnc3c(N)ncnc32)O1,IIIB,,>100 µM
CCOC(=O)/C=C\c1c(-c2cccs2)[nH]c2ccccc12,,,0.00944 µM
CCN1c2ncc(CCc3ccccc3)cc2C(=O)N(C)c2ccc(Cl)nc21,IIIB,,0.05 µM
COC(=O)/C=C/c1c(-c2cccs2)[nH]c2ccccc12,,,0.00293 µM
Cc1ccc(/C=C/c2cc3ccc(Cl)c(C)c3nc2Cl)s1,,,0.18 µg/mL
Cc1cc(=O)c2c(O)c3c(O)cc(O)c4c5c(O)cc(O)c6c(O)c7c(=O)cc(C)c8c1c2c(c34)c(c65)c78,,,108 µg/mL
Cc1c(Cl)ccc2cc(/C=C/c3sccc3Br)c(Cl)nc12,,,0.22 µg/mL
Cc1c(Sc2ccccc2)n(COCc2ccccc2)c(=O)[nH]c1=O,,,4 µM
CCCCCCCCCCCCCCCC(=O)NCC1OC(n2cnc3c(N)ncnc32)C(OP(=O)(O)OCC2CC(OP(=O)(O)OCC3OC(n4cnc5c(N)ncnc54)C(O)C3O)C(n3cnc4c(N)ncnc43)O2)C1O,IIIB,,<100 µM
CC(C)[C@H](NC(=O)c1ccccc1)C(=O)N/N=C/c1c(F)cccc1F,,,162.2 µM

Repeating the final 3 entries:

compound,strain,changes,result
Cc1c(Sc2ccccc2)n(COCc2ccccc2)c(=O)[nH]c1=O,,,4 µM
CCCCCCCCCCCCCCCC(=O)NCC1OC(n2cnc3c(N)ncnc32)C(OP(=O)(O)OCC2CC(OP(=O)(O)OCC3OC(n4cnc5c(N)ncnc54)C(O)C3O)C(n3cnc4c(N)ncnc43)O2)C1O,IIIB,,<100 µM
CC(C)[C@H](NC(=O)c1ccccc1)C(=O)N/N=C/c1c(F)cccc1F,,,162.2 µM